## Primary screen of a compound library

Data taken from ChEMBL document CHEMBL3988442, “University of Dundee, Small-Polar-MMV Screening Library” (2021).

Mtb glucose medium: 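Growth of Mycobacterium tuberculosis over 3 days (7H9 medium with glucose and tyloxapol); the read-out is not stated. Tested at 50 µM. Higher reads as more growth inhibition (inferred: compounds with an IC50 in retests scored well above the rest). Of about 69,000 compounds tested this way, about 760 (1.1%) reached 50% or more in at least one test.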
Mtb cholesterol medium: 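Whole-cell growth test on Mycobacterium tuberculosis, read after 4 days in a medium based on cholesterol and the lipid DPPC; the read-out is not stated. Concentration: 50 µM. Higher reads as more growth inhibition (inferred: compounds with an IC50 in retests scored well above the rest). About 69,000 compounds were tested under these conditions; 0.54% (about 370) showed 50% or more at least once.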

Values are the deposited “Percent Effect”, in %.
How 0% and 100% were set is not recorded. Most values in the screen are low, and negative values occur.
Many other results are left out here, so strong results are more common than in the screen.
Two or more numbers in one place are separate tests of the same structure; such repeats can differ widely.
A dash means the value is not listed here; it may have been measured.

| # | compound | Mtb glucose medium | Mtb cholesterol medium |
|---|---|---|---|
| 1 | `CC(NCC1CCN(CCO)CC1)c1ccc(F)c(Cl)c1` (centres undefined) | -10.03% | - |
| 2 | `COc1ccccc1CN(C)C(=O)CN1CC(n2nc(C)cc2C)C1` | 58.78% | - |
| 3 | `Cc1cccc(CN2CCN(C(=O)c3cc(C4CC4)[nH]n3)CC2)c1` | 68.76% & 58.57% | 66.4% |
| 4 | `COc1ccc(C)cc1CN1CCN(Cc2nccn2C)CC1` | 1.127% & 9.306% | 4.975% |
| 5 | `COCc1ccc(C(=O)N2CCCN(Cc3ccc(F)cc3)CC2)s1` | -45.6% | -3.687% |
| 6 | `CCc1c(C)n(CCOC)c2nc3ccccc3n2c1=O` | 3.635% & -0.4743% | - |
| 7 | `Cc1cc(C)n(CCN2CCN(C(=O)c3cc4ccccc4o3)CC2)n1` | 11.76% & 23.21% | - |
| 8 | `CN(Cc1cccc(F)c1)S(=O)(=O)N1CCOCC1` | -2.845% & -5.532% | -7.969% |
| 9 | `c1ccc2sc(CN3CCOC(Cn4cccn4)C3)nc2c1` (centres undefined) | 7.818% | -27.25% |
| 10 | `COc1ncnc2c1CCN(c1cccc(F)c1)CC2` | 31.25% & 6.221% | - |
| 11 | `Cc1cc2c(cc1CNC(Cc1cccs1)c1nccs1)OCO2.Cl` (centres undefined) | 9.871% | 14.15% & 59.95% |
| 12 | `CCOc1ccc(CN2CCN(C(=O)c3cc(C4CC4)[nH]n3)CC2)cc1` | -4.047% & 0.594% | - |
| 13 | `C[C@@H]1CN(c2nc3c(cc2C(N)=O)CCC3)CC[C@@]1(O)C1CCC1` | 55.04% & 15.83% | - |
| 14 | `CCc1nc(NCC2CCCN(C(=O)C3CC3)C2)c2cnn(C)c2n1` (centres undefined) | - | 7.483% |
| 15 | `O=C(CCc1ccco1)N1CCC(Nc2cccnn2)CC1` | 2.299% & 18.35% | - |
| 16 | `COC(=O)COn1c(OC)nc2ccccc2c1=O` | -10.49% | - |
| 17 | `CCC(CO)NCc1ccc(-c2ccc(Cl)cc2)o1.Cl` (centres undefined) | 23.68% & 22.45% | 31.86% |
| 18 | `Cc1cc(N(C)Cc2noc(C)n2)n2nc(C)c(C)c2n1` | 6.224% & -5.966% | -13.54% |
| 19 | `NC(=O)C1CCN(C(=O)Cc2ccc(Cl)c(Cl)c2)CC1` | -14.81% | - |
| 20 | `CCC(CCO)NS(=O)(=O)c1ccc(Br)cn1` (centres undefined) | 14.27% | - |
| 21 | `[H][C@@]12OCCN(C(=O)COc3ccccc3)[C@@]1([H])CC[C@@H]2OCC` | 22.26% | - |
| 22 | `Cc1cnn(CCNCc2ccccc2F)c1` | 27.66% | - |
| 23 | `COCC(=O)NC(C)Cc1cccc(OC)c1` (centres undefined) | 43.69% | - |
| 24 | `O=C(c1cncnc1)N1CCCC(c2nccs2)C1` (centres undefined) | - | -1.309% & 3.058% |
| 25 | `c1cc(CNc2nnc(Cc3ccsc3)o2)cs1` | 24.84% | 5.696% |
| 26 | `O=C(c1cc(Cl)c[nH]1)N(CCCO)Cc1cccnc1` | 0.6472% | - |
| 27 | `COC(CNC(=O)N1CCC(n2cncn2)CC1)c1ccccc1` (centres undefined) | -9.023% | - |
| 28 | `CC(=O)N1CCCN(Cc2cc(F)cc(Br)c2)CC1` | -23.31% | - |
| 29 | `Cc1cccc(OCCCN2CCC(N(C)Cc3noc(C)n3)C2)c1` (centres undefined) | 17.61% | -3.012% |
| 30 | `CC(C(=O)NCCOc1cccc(Cl)c1)n1cncn1` (centres undefined) | -14.68% | - |
| 31 | `CCN(Cc1cc(F)c(OC)c(Cl)c1)Cc1noc(CC(C)C)n1` | 59.58% | - |
| 32 | `CCC(=O)Nc1nnc2n(Cc3cccc(OC)c3)[nH]c(C)c1-2` | 19.7% & 111.3% | - |
| 33 | `c1ccc(OCCCN2CCN(c3ccc4nncn4n3)CC2)cc1` | 51.24% | - |
| 34 | `Brc1ccc(NCc2ccc(Cn3ccnc3)cc2)nc1` | 70.19% | 63.45% |
| 35 | `CCCN1CCC(c2cc(CCOc3ccc(C(F)(F)F)cc3)[nH]n2)C1` (centres undefined) | - | 21.96% & 18.92% |
| 36 | `Cc1nnc(SCc2ccccn2)s1` | -4.862% | -6.518% |
| 37 | `CN(C)c1cccc(CNC(=O)Nc2ccc3[nH]nnc3c2)n1` | -3.718% & -6.975% | - |
| 38 | `CN(CC(C)(C)C)S(=O)(=O)c1ccc(C(F)(F)F)nc1` | -0.006743% | 27.94% |
| 39 | `O=S(=O)(Cc1ccccc1)NCCNc1ccc(-n2cccc2)nn1` | 33.57% & -2.185% | -4.075% |
| 40 | `O=C(c1c[nH]c2ccccc2c1=O)N1CCSCC1` | 98.72% | - |
| 41 | `Cc1n[nH]c(C)c1CCNC(=O)C1CCCN(Cc2ccco2)C1` (centres undefined) | - | 51.32% |
| 42 | `c1ccc(C2CN(C3CC3)CC3(CCN(Cc4ncc[nH]4)CC3)C2)cc1` (centres undefined) | 9.776% & 7.722% | -6.298% |
| 43 | `O=C1N(Cc2ccccc2F)CCCC12CCN(C1CCSCC1)C2` (centres undefined) | 36.37% | - |
| 44 | `CCSc1nnc([C@@H](N)CC(C)C)o1.Cl` | 18.47% & 14.08% | 7.466% |
| 45 | `Cc1cccc(CNCC2COC3(CCCCC3)O2)c1C` (centres undefined) | -27.45% | -19.51% |
| 46 | `O=C(CN1CCCC1Cn1cncn1)NCCOc1ccc(F)cc1` (centres undefined) | -1.062% | - |
| 47 | `CC(C)N1CC2(CCCN(Cc3noc(C4CCCC4)n3)C2)CCC1=O` (centres undefined) | - | 57.88% & 9.808% |
| 48 | `Cc1nn(C)c2cnn(CC(=O)NCc3ccc(F)cc3)c12` | -30.55% | - |
| 49 | `CC(NC(=O)CCn1c(=O)oc2ccccc21)c1ccccn1` (centres undefined) | - | 3.526% & -5.047% |
| 50 | `COC(=O)C(C)NCc1ccc2[nH]c(C)c(C)c2c1` (centres undefined) | 2.423% | -17.24% |
| 51 | `Cc1nc(CN(C)C2CCCN(c3cccnn3)C2)no1` (centres undefined) | -28.27% | - |
| 52 | `CN(CCCNS(=O)(=O)N1CCC2(CC1)OCCO2)c1ccccc1` | -18.1% | -32.43% & 8.215% |
| 53 | `CN(Cc1nc2ccccc2o1)C1CCCN(c2cccnn2)C1` (centres undefined) | 106.3% | - |
| 54 | `Cl.Clc1cccc(N[C@H]2CCCN[C@H]2Cc2ccccc2)c1` | 116.2% | 111.3% |
| 55 | `Cc1ccc(C)c(-n2cc(CN3CC[C@@H](O)C3)c(-c3ccccc3)n2)c1` | 71.73% | - |
| 56 | `O=C(Nc1ccc(-n2cccn2)cc1)N1CCC(O)C1` (centres undefined) | -12.15% | -21.81% |
| 57 | `c1cc(CN(CCCn2ccnc2)Cc2ccoc2)ccn1` | 7.484% | - |
| 58 | `FC(F)(F)Sc1ccc(NCc2nnc(C3CC3)o2)cc1` | 39.15% | 52.15% |
| 59 | `O=C(CN(Cc1ccccc1)CC1CCOCC1)Nc1nccs1` | 5.21% | - |
| 60 | `c1ccc2c(c1)CN(c1ncnc3c1CCNC3)CCO2` | 17.64% | - |
| 61 | `CCN(Cc1c(F)cccc1Cl)c1cc(C2CCNCC2)nc(C)n1` | 63.18% | - |
| 62 | `CN1N=C(C(=O)NCc2ccc3c(c2)CCCN3C)CCC1=O` | 12.25% | 4.742% |
| 63 | `Cc1ccc(-c2cc(C(=O)NCCN3CCCS3(=O)=O)[nH]n2)cc1` | -10.85% | -44.53% |
| 64 | `O=C(O)C(F)(F)F.[H][C@]12CN(c3ccccc3)C(=O)[C@@]1([H])CN(C1CCOC1)C2` (some centres undefined) | 11.93% & 50.58% | - |
| 65 | `Cc1ccc(C(=O)N2CCN(Cc3ccsc3)CC2)n1C` | -3.684% | - |
| 66 | `COc1cccc(O)c1CN1CCCC(Nc2cccc(F)c2)C1` (centres undefined) | 2.563% & 20.21% | 18.55% |

The last 4 entries again:

| compound | Mtb glucose medium | Mtb cholesterol medium |
|---|---|---|
| `Cc1ccc(-c2cc(C(=O)NCCN3CCCS3(=O)=O)[nH]n2)cc1` | -10.85% | -44.53% |
| `O=C(O)C(F)(F)F.[H][C@]12CN(c3ccccc3)C(=O)[C@@]1([H])CN(C1CCOC1)C2` (some centres undefined) | 11.93% & 50.58% | - |
| `Cc1ccc(C(=O)N2CCN(Cc3ccsc3)CC2)n1C` | -3.684% | - |
| `COc1cccc(O)c1CN1CCCC(Nc2cccc(F)c2)C1` (centres undefined) | 2.563% & 20.21% | 18.55% |